Results as given in patent US9180159B2, “Use of cell-permeable peptide inhibitors of the JNK signal transduction pathway for the treatment of chronic or non-chronic inflammatory digestive diseases” (Xigen Inflammation Ltd., priority 2008, dated 2015).

Test system: TC-3 cell cultures
Assay: Cellular import and intracellular persistence of fluorescein-labeled peptides in TC-3 cells
Type: cell-based
Conditions: time course study
Procedure: The ability of the L- and D-enantiomeric forms of TAT and TAT-IB1(s) peptides (“TAT-IB peptides”) to enter cells was evaluated. L-TAT, D-TAT, L-TAT-IB1(s), and D-TAT-IB1(s) peptides [SEQ ID NOs: 5, 6, 9 and 12, respectively] were labeled by N-terminal addition of a glycine residue conjugated to fluorescein. Labeled peptides (1 μM) were added to TC-3 cell cultures, which were maintained as described in Example 3. At predetermined times cells were washed with PBS and fixed for five minutes in ice-cold methanol-acetone (1:1) before being examined under a fluorescence microscope. Fluorescein-labeled BSA (1 μM, 12 moles/mole BSA) was used as a control.
Little to no signal was present at 48 hours.

Substance | stability inside the cells
H-DQSRPVQPFLNLTTPRKPRPPRRRQRRKKRG-OH [XG-102] | extremely stable inside the cells
H-RRRQRRKKRG-OH | extremely stable inside the cells
